{"source": "paper PMC13577091", "system": "CcpA + HPr-Ser46~P (S46D phosphomimetic)", "assay": "EMSA", "settings": "HPr-Ser46~P (S46D) added, enhances CcpA binding more than HPr; Beyotime chemiluminescent EMSA kit, 5X binding buffer (composition and pH not stated), 10 ul, room temperature, 10 min then 20 min with labeled probe, 6% acrylamide gel; recombinant protein; label: 5' biotin (reverse primer); probe letters rebuilt from the primers and the genome", "note": "Construct, isoform or probe ends are uncertain for at least one entry.", "data": [{"sequence": "TACACATCTGCTTCTAAAATATTGTTAGAAAACGATTTGACTGTCCTGATCAATTTGTCATGTTCTTATTTCATTTTACTATATTTTTGGTTCGCGGGAAGTCTACTAAGATACTTAAAGATGCAGATAGTGAAAAAAGGTGTAGACATTACCGTAAAAAAGTGATATAATCGTAAGATGTTCAATGTATAGGTGTTAATCATGAGTAGACGTTTTAA (double strand) [Pcps promoter probe]", "values": [{"measurement": "binding result", "value": "binds"}]}]}
